ChEMBL document CHEMBL1144291, “Synthesis of 9-(2-beta-C-methyl-beta-d-ribofuranosyl)-6-substituted purine derivatives as inhibitors of HCV RNA replication” (Bioorg Med Chem Lett, 2005)

Assays:
[1] = system: Hepatitis C virus; experiment: Cytotoxicity concentration to inhibit hepatitis C virus RNA replication in a subgenomic replicon cell line
[2] = system: Hepatitis C virus; experiment: Inhibition of hepatitis C virus RNA replication in a subgenomic replicon cell line

Row | SMILES | CC50 [1] [µM] | EC50 [2] [µM]
1 | COP(=O)(O)Nc1ncnc2c1ncn2C1O[C@H](CO)[C@@H](O)[C@@]1(C)O (stereo partly specified) | 300 | 33
2 | C[C@]1(O)C(n2cnc3c(NP(N)(=O)O)ncnc32)O[C@H](CO)[C@H]1O (stereo partly specified) | 300 | 6
3 | CCOP(=O)(Nc1ncnc2c1ncn2C1O[C@H](CO)[C@@H](O)[C@@]1(C)O)OCC (stereo partly specified) | 300 | 25
